Measurements from doi:10.1101/2024.08.29.610268.

What was measured:
Experiment in all cases: fluorescence anisotropy
Conditions in all cases: recombinant protein
NELF ΔA tentacle (human) = system: NELF ΔA tentacle (human)
NELF ΔE tentacle (human) = system: NELF ΔE tentacle (human)
[1] = system: NELF ΔAE tentacle (human)

Measured: binding result

CCAGAUCUGAGCCUGGGAGCUCUCUGG [HIV-1 TAR stem loop]
binds more weakly: NELF ΔA tentacle (human) | NELF ΔE tentacle (human) | [1]

The exact form of at least one protein or probe is not confirmed. The comparison behind a weaker result is the experiment's own reference, which may not be listed here.
